Data as given in publication PMC9228152, “New Amino Naphthoquinone Derivatives as Anti-Trypanosoma cruzi Agents Targeting Trypanothione Reductase” (Pharmaceutics, 2022).

Tests used:
[1] = test system: T. cruzi epimastigotes, NINOA strain; assay: Growth inhibition of T. cruzi epimastigotes, NINOA strain; assay type: cell-based, Trypanosoma cruzi; conditions: SI = IC50 on J774 cells / IC50 T. cruzi epimastigotes NINOA
Description: (§1) Epimastigotes from T. cruzi strains NINOA and INC-5 were cultured in BHI (brain heart infusion broth, 89%) axenic medium, as reported in [26], at an initial concentration of 1 × 10^6 parasites/mL, at 28 °C, supplemented with 10% foetal bovine serum and 1% sodium penicillin-streptomycin. […] On the last day, the absorbance of the cultures was measured and related to the control. All measurements were carried out in triplicate. No toxic effect was attributable to DMSO. Since parasite growth is exponential, the data were analysed according to a first order equation, and the respective growth constant (k), corresponding to the slope, was calculated for controls and parasites treated with different drug concentrations. From these measurements, percentage growth inhibition (%GI) and half-maximal inhibitory concentration (IC50) values were calculated.

[2] = test system: T. cruzi epimastigotes, INC-5 strain; assay: Growth inhibition of T. cruzi epimastigotes, INC-5 strain; assay type: cell-based, Trypanosoma cruzi; conditions: SI = IC50 on J774 cells / IC50 T. cruzi epimastigotes INC-5
Description: as §1

[3] = test system: T. cruzi trypomastigotes, INC-5 strain; assay type: cell-based; conditions: SI = IC50 on J774 cells / LC50 T. cruzi trypomastigotes INC-5
Description: (§2) Those compounds with the lowest IC50 values in the epimastigote studies of each strain were evaluated in trypomastigotes. For this purpose, bloodstream trypomastigotes of INC-5 and NINOA strains were used for peritoneal injection into 6−8-week-old CD1 mice. The peak of parasitemia was achieved after 4–6 weeks, at which time parasitised blood samples were obtained by cardiac puncture using sodium heparin as an anticoagulant and diluted to a concentration of 1 × 10^6 trypomastigotes/mL. 10 µL of each of the dilutions of the study compounds and Bzn, with these being placed in a 96-well plate, and 90 µL of infected blood was added, providing a final volume of 100 µL per well. The microplates were incubated at 4 °C for 24 h, and concentrations of 20 µM, 10 µM, and 5 µM of each compound were considered in these experiments. Each evaluation was performed in triplicate. Wells with untreated blood trypomastigotes were used as a negative lysis control and Bzn as a positive control. Then, the degree of lysis of trypomastigotes was determined by their reduction in number using an optical microscope according to the Brener–Pizzi method. For this purpose, 5 μL of blood was placed between a slide and a 13 × 13 coverslip. Mobile trypomastigotes were counted in 15 microscope fields at 40× magnification. Quantification of the degree of lysis for each case was expressed as a percentage considering the number of viable trypomastigotes with respect to the negative control. The half-maximal lytic concentration (LC50) was determined by linear regression. The experiments were carried out in accordance with the recommendations and approval of the local Ethics and Research Committee (Approval number: ENCB/CEI/078/2020).

[4] = test system: T. cruzi trypomastigotes, NINOA strain; assay type: cell-based; conditions: SI = IC50 on J774 cells / LC50 T. cruzi trypomastigotes NINOA
Description: as §2

| SMILES | NINOA Epi SI [1] | INC-5 Epi SI [2] | INC-5 Trypo SI [3] | NINOA Trypo SI [4] |
| --- | --- | --- | --- | --- |
| O=C(Cn1ccnc1[N+](=O)[O-])NCc1ccccc1 [Bzn, benznidazole, reference compound] | 42.9 | 8.38 | 4.11 | 2.36 |
| O=C(NC1CCN(C2=C(Cl)C(=O)c3ccccc3C2=O)CC1)c1cccc(Cl)c1 [Compound 7c, 3-Chloro-N-(1-(3-chloro-1,4-dioxo-1,4-dihydronaphthalen-2-yl)piperidin-4-yl)benzamide] | 48.0 | 21.9 | – | 0.37 |
| O=C(NC1CCN(C2=C(Cl)C(=O)c3ccccc3C2=O)CC1)c1cc([N+](=O)[O-])cc([N+](=O)[O-])c1 [Compound 7f, N-(1-(3-chloro-1,4-dioxo-1,4-dihydronaphthalen-2-yl)piperidin-4-yl)-3,5-dinitrobenzamide] | 25.2 | 13.6 | 0.25 | 0.32 |
| COc1ccc(C(=O)NC2CCN(C3=C(Cl)C(=O)c4ccccc4C3=O)CC2)cc1F [Compound 7h, N-(1-(3-chloro-1,4-dioxo-1,4-dihydronaphthalen-2-yl)piperidin-4-yl)-3-fluoro-4-methoxybenzamide] | 26.2 | 16.3 | 0.23 | 0.28 |
| O=C1C(Cl)=C(N2CCC(NC(=O)c3cccc4ccccc34)CC2)C(=O)c2ccccc21 [Compound 7j, N-(1-(3-chloro-1,4-dioxo-1,4-dihydronaphthalen-2-yl)piperidin-4-yl)-1-naphthamide] | 76.7 | 35.9 | 0.55 | 0.34 |
